The values below are quoted from earlier work in EP3645498B1, “PROCESS FOR RECOVERING ACETIC ACID FROM AN AQUEOUS STREAM COMPRISING THE SAME” (Nouryon Chemicals International B.V., priority 2017, dated 2019).

Each structure is given as a SMILES string.

For this data set the following is noted: 20°C.

With `CCCCOP(=O)(OCCCC)OCCCC`, the Solubility in water is 6 g/L (20°C) ^[4].
